Compound potency records, mixed from different reports. Data source: NIAID ChemDB in PubChem.

Shared fields: target-level tests

Rows are shuffled and stem from different studies. An empty or dashed field is not shown. Inhibition is in % at the dose shown (toxicity tests: loss of growth or viability). Two numbers with a dash give a range or band. ICn: concentration for n% inhibition.

SMILES | target | organism | dose | endpoint | value
C=CCN(c1cc2oc(-c3ccc(F)cc3)c(C(=O)NC)c2cc1OC(C)C)S(C)(=O)=O | Nonstructural protein 5B | Hepatitis C virus | - | IC50 | ≤0.5 µM
O=C(O)c1sc(-c2ccccc2)cc1NS(=O)(=O)c1ccccc1CCl | NS3 ATPase | Hepatitis C virus | - | IC50 | 5–20 µM
O=C(Cn1c(-c2ccccc2)nc2ccccc21)Nc1cscc1-c1nc(C(=O)O)c(O)c(=O)[nH]1 | HCV polymerase | Hepatitis C virus | - | IC50 | <25 µM
Cc1ccc(S(=O)(=O)Nc2cc(-c3ccc(S(C)(=O)=O)cc3)sc2C(=O)O)c(C)c1 | NS3 ATPase | Hepatitis C virus | - | IC50 | <5 µM
COCCNc1nc(Nc2ccc3cn[nH]c3c2)nc(OC)n1 | Nonstructural protein 5B | Hepatitis C virus | 1 µg/mL | inhibition | 41%
O=C(O)CCC(=O)N[C@H](C(=O)N[C@@H](CCC(=O)O)C(=O)N[C@H](C(=O)N[C@@H](CS)C(=O)O)c1ccc(-c2ccccc2)cc1)C(c1ccccc1)c1ccccc1 | Nonstructural protein 3 NTPase/helicase | Hepatitis C virus | 16.7 µM | inhibition | 13%
O=C(O)c1sc(-c2ccccc2)cc1NC(=O)N1CCN(Cc2ccc(Cl)cc2)CC1 | NS3 ATPase | Hepatitis C virus | - | IC50 | 5–20 µM
O=C(O)c1nc(-c2ccccc2NS(=O)(=O)c2cccc3nonc23)[nH]c(=O)c1O | HCV polymerase | Hepatitis C virus | - | IC50 | <100 µM
CNC(=O)c1c(-c2ccc(F)cc2)oc2cc(S(=O)(=O)NC3CC3)c(OC(C)C)cc12 | Nonstructural protein 5B | Hepatitis C virus | - | IC50 | ≤0.5 µM
COc1nc(NCCCn2ccnc2)nc(Nc2ccc3[nH]ncc3c2)n1 | DNA polymerase | Hepatitis B virus | 0.1 µg/mL | inhibition | 50%
O=C(O)c1nc(-c2sccc2/C=C/c2ccccc2)[nH]c(=O)c1O | HCV polymerase | Hepatitis C virus | - | IC50 | <25 µM
CNC1N=C(OC)N=C(Nc2ccc3cn[nH]c3c2)N1CN | DNA polymerase | Hepatitis B virus | 0.01 µg/mL | inhibition | 16%
O=C(O)c1nc(-c2ccccc2NS(=O)(=O)c2ccccc2[N+](=O)[O-])[nH]c(=O)c1O | HCV polymerase | Hepatitis C virus | - | IC50 | <100 µM
COc1nc(NCCCn2ccnc2)nc(Nc2ccc3cn[nH]c3c2)n1 | DNA polymerase | Hepatitis B virus | 0.01 µg/mL | inhibition | 25%
CCCN(C(=O)c1ccc(C)cc1)c1cc(-c2ccc(CCC(=O)O)cc2)sc1C(=O)O | NS3 ATPase | Hepatitis C virus | - | IC50 | 5–20 µM
O=C(O)CCC(=O)N[C@H](C(=O)N[C@@H](CCC(=O)O)C(=O)N[C@@H](Cc1ccc2ccccc2c1)C(=O)N[C@@H](CS)C(=O)O)C(c1ccccc1)c1ccccc1 | Nonstructural protein 3 NTPase/helicase | Hepatitis C virus | 83.5 µM | inhibition | 74%
C[C@H](NC(=O)Nc1ccsc1-c1nc(C(=O)O)c(O)c(=O)[nH]1)c1ccccc1 | HCV polymerase | Hepatitis C virus | - | IC50 | <25 µM
CC[C@H](C)[C@H](NC(=O)[C@@H](NC(=O)CCC(=O)O)C1CCCCC1)C(=O)N[C@@H](CC1CCCCC1)C(=O)NC1(C(=O)O)CC1 | Nonstructural protein 3 NTPase/helicase | Hepatitis C virus | - | IC50 | <167 µM
CNC(=O)c1c(-c2ccc(F)cc2)oc2cc(N(CS(C)(=O)=O)OC)c(O)cc12 | Nonstructural protein 5B | Hepatitis C virus | - | IC50 | ≤0.5 µM
CC(C)C[C@H](NC(=O)[C@H](CCC(=O)O)NC(=O)[C@@H](NC(=O)CCC(=O)O)C1CCCCC1)C(=O)NC1(C(=O)O)CC1 | Nonstructural protein 3 NTPase/helicase | Hepatitis C virus | - | IC50 | >167 µM
CNC(=O)c1c(-c2ccc(F)cc2)oc2cc(N(C(C)C)S(C)(=O)=O)c(OC)cc12 | Nonstructural protein 5B | Hepatitis C virus | - | IC50 | ≤0.5 µM
CCC(C)[C@H](NC(=O)[C@@H](NC(=O)CCCC(=O)O)C1CCCCC1)C(=O)N[C@@H](CC1CCCCC1)C(=O)N[C@@H](CS)C(=O)O | Nonstructural protein 3 NTPase/helicase | Hepatitis C virus | - | IC50 | <16.7 µM
COc1nc(NCCc2ccccn2)nc(Nc2ccc3cn[nH]c3c2)n1 | DNA polymerase | Hepatitis B virus | 0.1 µg/mL | inhibition | 27%
CC[C@H](C)[C@H](NC(=O)[C@H](CC(C)C)NC(=O)CCCC(=O)O)C(=O)N[C@@H](CC1CCCCC1)C(=O)NC1(C(=O)O)CC1 | Nonstructural protein 3 NTPase/helicase | Hepatitis C virus | - | IC50 | >167 µM
O=C(O)c1nc(-c2sccc2NC(=O)N2CCC(Cc3ccccc3)CC2)[nH]c(=O)c1O | HCV polymerase | Hepatitis C virus | - | IC50 | <25 µM
CC(C)[C@H](NC(=O)[C@@H](NC(=O)CCC(=O)O)C1CCCCC1)C(=O)N[C@@H](CCC(=O)O)C(=O)N[C@@H](CS)C(=O)O | Nonstructural protein 3 NTPase/helicase | Hepatitis C virus | 16.7 µM | inhibition | 36%
CC(=O)N1CCC(N(C(=O)c2ccc(Cl)cc2Cl)c2cc(-c3ccccc3)sc2C(=O)O)CC1 | NS3 ATPase | Hepatitis C virus | - | IC50 | <5 µM
CC(=O)N[C@H](C(=O)N[C@@H](CCC(=O)O)C(=O)N[C@@H](Cc1ccc2ccccc2c1)C(=O)N[C@@H](CS)C(=O)O)C1CCCCC1 | Nonstructural protein 3 NTPase/helicase | Hepatitis C virus | 16.7 µM | inhibition | 74%
O=C(O)c1sc(-c2ccccc2)cc1N(C(=O)c1ccc(Cl)cc1Cl)C1CCNC1 | NS3 ATPase | Hepatitis C virus | - | IC50 | 5–20 µM
O=C(Nc1cscc1-c1nc(C(=O)O)c(O)c(=O)[nH]1)OCc1ccc(F)cc1F | HCV polymerase | Hepatitis C virus | - | IC50 | <25 µM
CC[C@H](C)[C@H](NC(=O)[C@H](CC(C)C)NC(=O)CCC(=O)O)C(=O)N[C@@H](CC1CCCCC1)C(=O)NC1(C(=O)O)CC1 | Nonstructural protein 3 NTPase/helicase | Hepatitis C virus | - | IC50 | >83.5 µM

3 of the rows above, restated:

O=C(O)c1sc(-c2ccccc2)cc1N(C(=O)c1ccc(Cl)cc1Cl)C1CCNC1 ; target: NS3 ATPase ; organism: Hepatitis C virus ; endpoint: IC50 ; value: 5–20 µM
C=CCN(c1cc2oc(-c3ccc(F)cc3)c(C(=O)NC)c2cc1OC(C)C)S(C)(=O)=O ; target: Nonstructural protein 5B ; organism: Hepatitis C virus ; endpoint: IC50 ; value: ≤0.5 µM
CC(=O)N[C@H](C(=O)N[C@@H](CCC(=O)O)C(=O)N[C@@H](Cc1ccc2ccccc2c1)C(=O)N[C@@H](CS)C(=O)O)C1CCCCC1 ; target: Nonstructural protein 3 NTPase/helicase ; organism: Hepatitis C virus ; dose: 16.7 µM ; endpoint: inhibition ; value: 74%